For test [1], the target named is DRB1*01:01 (High PTM) (Homo sapiens).
For test [2], the target named is fDR1 (Homo sapiens). In words: FP competition assay, average IC50 of n=2, L243 purified fDR1.
Test [3] concerns the target fDR1 (Homo sapiens). The test is described as follows: FP competition assay, average IC50 of n=2, Ni purified full length DR1 (fDR1).
The target of test [4] is fDR1 (Homo sapiens). In words: FP competition assay, average IC50 of n=2, Ni purified fDR1.

Where “and” joins values, the source holds several entries; their conditions need not be identical. Identical values can stand only once.

Turning to HA peptide, in test [1], the percent printed in the APC / PE flow plot is 1.78% and 0.34% and 0.15%. Moreover, the IC50 in test [2] turned out to be 41 nM; in test [3], 33 nM; in test [4] it was 33 nM.

As a reminder, the IC50 is the point on the concentration scale where inhibition reaches its midpoint.

Source of the values: patent US20260031189A1, “METHOD AND SYSTEMS FOR PREDICTION OF HLA CLASS II-SPECIFIC EPITOPES AND CHARACTERIZATION OF CD4+ T CELLS” (BioNTech US Inc., priority 2022, published 2026).
